Compound potency records, mixed from different reports. Data source: NIAID ChemDB in PubChem.

Shared fields: growth or infection tests; species: HIV-2; read-out: EC50

Two numbers with a dash give a range or band. An empty or dashed field is not shown. Conditions beyond the fields shown may differ between rows. ECn: concentration that inhibits the pathogen or its effect by n%.

| smiles | read by | strain | cell line | result |
|---|---|---|---|---|
| CC1CCC(C(C)C)/C(=N/NC(=S)Nc2cccc(Cl)c2)C1 | - | ROD | MT-4 | >44.6 µg/mL |
| CC1(C)OS(=O)(=O)C=C1NCc1ccccc1 | cytopathic effect / MTT | ROD | MT-4 | >125 µg/mL |
| O=C(COc1nsnc1-c1cccc2ccccc12)Nc1ccccc1F | MTT | ROD | MT-4 | >126 µM |
| CCCCCCCCCC(=O)Oc1ccc(COP(=O)(OCc2ccc(OC(=O)CCCC)cc2)OP(=O)(O)OCC2C=C[C@H](n3cc(C)c(=O)[nH]c3=O)O2)cc1 | syncytia | ROD | CEM | 1.05 µM |
| CCNc1c(N=Nc2ccc(-c3ccc(OC)c(OC)c3)cc2)c(N)nc(=O)n1C | MTT | ROD | MT-4 | >23.13 µM |
| Nn1ccnc1 | - | ROD | - | 0.2–4 µg/mL |
| CCCCC(=O)Oc1ccc(COP(=O)(OCc2ccc(OC(=O)c3ccc(C(F)(F)F)cc3)cc2)OP(=O)(O)OCC2C=C[C@H](n3cc(C)c(=O)[nH]c3=O)O2)cc1 | syncytia | ROD | CEM/TK- | 6.31 µM |
| CCCCCCNc1c(N=Nc2ccc(Cl)cc2)c(N)nc(=O)n1C | MTT | ROD | MT-4 | >66.6 µM |
| Cc1ccc(NC(=O)COc2nsnc2-c2cccc3ccccc23)c(Br)c1 | MTT | ROD | MT-4 | >14 µM |
| Cn1c(N2CCOCC2)c(N=Nc2ccc(Cl)cc2)c(N)nc1=O | MTT | ROD | MT-4 | >12.22 µM |
| Cc1cn([C@@H]2O[C@H](CN3CCNCC3)C3(OS(=O)(=O)C=C3N)[C@H]2O[Si](C)(C)C(C)(C)C)c(=O)n(C)c1=O | - | - | MT-4 | 37.3 µM |
| CC1=C(N)C(C)(Cc2ccccc2)OS1(=O)=O | cytopathic effect / MTT | ROD | MT-4 | >125 µg/mL |
| Cn1c(N2CCOCC2)c(N=Nc2ccc(-c3ccc(F)cc3)cc2)c(N)nc1=O | MTT | ROD | MT-4 | >88.71 µM |
| CCCCCCCCCCCC(=O)Oc1ccc(COP(=O)(OCc2ccc(OC(C)=O)cc2)OP(=O)(O)OCC2C=C[C@H](n3cc(C)c(=O)[nH]c3=O)O2)cc1 | syncytia | ROD | CEM/TK- | 6.31 µM |
| O=C(COc1nsnc1-c1cccc2ccccc12)Nc1ccccn1 | MTT | ROD | MT-4 | >13 µM |
| CC1CCC(C(C)C)/C(=N/NC(=O)Nc2ccc(Cl)cc2)C1 | - | ROD | MT-4 | >28.4 µg/mL |
| COC(=O)CCCCNP(=O)(OC[C@@H]1C=C[C@H](n2cc(C)c(=O)[nH]c2=O)O1)Oc1ccccc1 | cytopathic effect / trypan blue | ROD | CEM + CEM/0 | >250 µM |
| O=[N+]([O-])c1ccc(-c2csc(N/N=C/c3cccnc3)n2)cc1 | MTT | ROD | MT-4 | >62.4 µM |
| COc1ccc(NC(=S)N/N=C2\CC(C)CCC2C(C)C)cc1 | - | ROD | MT-4 | >84.6 µg/mL |
| Cc1cn([C@@H]2O[C@H](COC(=O)C(C)C)C3(OS(=O)(=O)C=C3N)[C@H]2O[Si](C)(C)C(C)(C)C)c(=O)n(C)c1=O | - | - | CEM + CEM/0 | >50 µM |
| C/C(=N\Nc1nc(-c2ccc(Br)cc2)cs1)c1ccc(-n2ccnc2)cc1 | MTT | ROD | MT-4 | >87.33 µM |
| CC1(C)C(N)=CS(=O)(=O)N1Cc1cccc(Cl)c1 | cytopathic effect / MTT | ROD | MT-4 | >125 µg/mL |
| COC(=O)CCCNP(=O)(OC[C@@H]1C=C[C@H](n2cc(C)c(=O)[nH]c2=O)O1)Oc1ccccc1 | cytopathic effect / trypan blue | ROD | CEM + CEM TK- | >250 µM |
| COc1ccc(-c2ccc(N=Nc3c(N)nc(=O)n(C)c3-c3ccc(OC)c(OC)c3)cc2)cc1OC | MTT | ROD | MT-4 | >1.63 µM |
| CCCCCCCCCC[N+](C)(C)CCCNCc1c(O)cc2c(c1O)-c1cc(ccc1O)[C@H]1NC(=O)[C@@H]3NC(=O)C4NC(=O)[C@@H](Cc5ccc(c(Cl)c5)Oc5cc3cc(c5O)Oc3ccc(cc3Cl)[C@@H](O)[C@H](NC1=O)C(=O)N[C@@H]2C(=O)O)NC(=O)[C@H](N)c1ccc(O)c(c1)Oc1cc(O)cc4c1 | syncytia | EHO | CEM | 6.8 µM |
| C/C(=N\Nc1nc(-c2ccc(Br)cc2)cs1)c1ccc(Cl)c(Cl)c1 | MTT | ROD | MT-4 | >13.05 µM |
| O=C(COc1nsnc1-c1cccc2ccccc12)Nc1ccccc1[N+](=O)[O-] | MTT | ROD | MT-4 | >66 µM |
| CC(=O)OC[C@H]1O[C@@H](n2cc(C)c(=O)n(C)c2=O)[C@H](O[Si](C)(C)C(C)(C)C)C12OS(=O)(=O)C=C2N | - | - | CEM + CEM/0 | >50 µM |
| O=[N+]([O-])c1ccc(-c2csc(N/N=C/c3ccccc3O)n2)cc1 | MTT | ROD | MT-4 | >125 µM |
| COC(=O)CCCCCCNP(=O)(OC[C@@H]1C=C[C@H](n2cc(C)c(=O)[nH]c2=O)O1)Oc1ccccc1 | cytopathic effect / trypan blue | ROD | CEM + CEM/0 | 110 µM |
| Cc1cn([C@@H]2O[C@H](CN3CCN(C)CC3)C3(OS(=O)(=O)C=C3N)[C@H]2O[Si](C)(C)C(C)(C)C)c(=O)n(C)c1=O | - | - | MT-4 | >50 µM |
| COC(=O)c1ccc(C2(C)OS(=O)(=O)C=C2N)cc1 | cytopathic effect / MTT | ROD | MT-4 | >125 µg/mL |
| Cc1cn([C@@H]2O[C@H](COC(=S)N(C)C)C3(OS(=O)(=O)C=C3N)[C@H]2O[Si](C)(C)C(C)(C)C)c(=O)n(C)c1=O | - | - | MT-4 | >10 µM |
| C[C@H](NC(=O)CCC(CCC(=O)N[C@@H](C)C(=O)O)(CCC(=O)N[C@@H](C)C(=O)O)NC(=O)CCOCC(COCCC(=O)NC(CCC(=O)N[C@@H](C)C(=O)O)(CCC(=O)N[C@@H](C)C(=O)O)CCC(=O)N[C@H](C)C(=O)O)(COCCC(=O)NC(CCC(=O)N[C@@H](C)C(=O)O)(CCC(=O)N[C@H](C)C(=O)O)CCC(=O)N[C@H](C)C(=O)O)COCCC(=O)NC(CCC(=O)N[C@@H](C)C(=O)O)(CCC(=O)N[C@H](C)C(=O)O)CCC(=O)N[C@H](C)C(=O)O)C(=O)O | MTS | ROD | CD4+ T-cell | >100 µM |
| COC(=O)[C@H](C)NP(=O)(OC[C@@H]1C=C[C@H](n2cc(C)c(=O)[nH]c2=O)O1)Oc1ccccc1 | cytopathic effect / trypan blue | ROD | CEM + CEM/0 | 0.102 µM |
| COc1ccc(Cn2cc(COc3nsnc3-c3cccc4ccccc34)nn2)cc1 | MTT | ROD | MT-4 | >116 µM |

For reference, 3 entries again:

smiles	read by	strain	cell line	result
COC(=O)c1ccc(C2(C)OS(=O)(=O)C=C2N)cc1	cytopathic effect / MTT	ROD	MT-4	>125 µg/mL
Cc1cn([C@@H]2O[C@H](CN3CCNCC3)C3(OS(=O)(=O)C=C3N)[C@H]2O[Si](C)(C)C(C)(C)C)c(=O)n(C)c1=O	-	-	MT-4	37.3 µM
COc1ccc(-c2ccc(N=Nc3c(N)nc(=O)n(C)c3-c3ccc(OC)c(OC)c3)cc2)cc1OC	MTT	ROD	MT-4	>1.63 µM